Pooled drug test results. Numbers come from NIAID ChemDB, via PubChem.

Shared fields: tests in culture; organism: Candida tropicalis

ECn is the concentration giving n% inhibition of infection, replication or growth. Blank or dashed fields: not listed here. A number after MIC or MFC names an inhibition level or a share of isolates. Neighbouring rows are from separate reports.

compound	cells	method	conditions	read-out	strain or isolate	result
O=C1C2=C(OC(CI)C2)C(=O)c2ccccc21	-	broth dilution	-	MIC	Clinical isolate	25.4 µg/mL
Clc1ccc(C(Cn2ccnc2)NCc2ccc(-c3ccccc3)cc2)c(Cl)c1	-	-	-	MIC	CBS 94 CA 44 CA 41	5.2 µg/mL
O=C(CCn1ccnc1)c1ccc(Cl)cc1	-	broth dilution	-	MIC	RTCC 1095	>64 µg/mL
Nc1[nH]c(=O)ncc1F	-	-	-	MIC90	10 isolates	0.08 µg/mL
Fc1ccc(C(Cn2ccnc2)NCc2cccc3ccccc23)cc1	VERO	-	-	EC50	CBS 94 CA 44 CA 14	12 µg/mL
O=C(CCn1ccnc1)c1ccc(-c2ccccc2)cc1	-	broth dilution	-	MIC	RTCC 1065	>64 µg/mL
CCC(C)CC(C)CCCCCCCCC(=O)N[C@H]1C[C@@H](O)[C@H](NCCN)NC(=O)[C@@H]2[C@@H](O)CCN2C(=O)[C@H]([C@H](O)CCN)NC(=O)[C@H]([C@H](O)[C@@H](O)c2ccc(O)cc2)NC(=O)[C@@H]2C[C@@H](O)CN2C(=O)[C@H]([C@@H](C)O)NC1=O	-	broth dilution	-	MIC	8664	1 µg/mL
Fc1ccc(C(Cn2ccnc2)NC/C=C/c2ccccc2)cc1	-	-	-	MIC	CBS 94 CA 44 CA 49	53 µg/mL
C=CCc1ccc(OC)c(OC)c1	-	turbidity	-	MIC90	2768	340 µg/mL
O=C(CCn1ccnc1)c1cccc(C(O)c2ccc(Br)cc2)c1	-	broth dilution	-	MIC	RTCC 1095	64 µg/mL
CC[C@@H]([C@H](C)O)n1ncn(-c2ccc(N3CCN(c4ccc(OC[C@@H]5CO[C@@](Cn6cncn6)(c6ccc(F)cc6F)C5)cc4)CC3)cc2)c1=O	-	broth dilution	-	MIC	8662	0.03 µg/mL
Clc1ccc(C(Cn2ccnc2)NC/C=C/c2ccccc2)c(Cl)c1	-	-	-	MIC	CBS 94 CA 44 CA 47	50 µg/mL
OC(Cn1cncn1)(Cn1cncn1)c1ccc(F)cc1F	-	-	48 h	MIC90	65 isolates	>100 µg/mL
O=C(CCn1ccnc1)c1cccc2ccccc12	-	broth dilution	-	MIC	RTCC 1065	>64 µg/mL
C[C@H]1[C@H](O)[C@@H](C)/C=C/C=C/C=C/C=C/C=C/C=C/C=C/[C@H](O[C@@H]2O[C@H](C)[C@@H](O)[C@H](N)[C@@H]2O)C[C@@H]2O[C@](O)(C[C@@H](O)C[C@@H](O)CC[C@H](O)[C@@H](O)C[C@@H](O)CC(=O)O[C@H]1C)C[C@H](O)[C@H]2C(=O)O	-	-	-	MIC50	10 isolates	0.2 µg/mL
Clc1ccc(C(Cn2ccnc2)NCc2ccc(-c3ccccc3)cc2)cc1	-	-	-	MIC	CBS 94 CA 44 CA 39	2.1 µg/mL

Repeating the final 2 entries:

compound	cells	method	conditions	read-out	strain or isolate	result
C[C@H]1[C@H](O)[C@@H](C)/C=C/C=C/C=C/C=C/C=C/C=C/C=C/[C@H](O[C@@H]2O[C@H](C)[C@@H](O)[C@H](N)[C@@H]2O)C[C@@H]2O[C@](O)(C[C@@H](O)C[C@@H](O)CC[C@H](O)[C@@H](O)C[C@@H](O)CC(=O)O[C@H]1C)C[C@H](O)[C@H]2C(=O)O	-	-	-	MIC50	10 isolates	0.2 µg/mL
Clc1ccc(C(Cn2ccnc2)NCc2ccc(-c3ccccc3)cc2)cc1	-	-	-	MIC	CBS 94 CA 44 CA 39	2.1 µg/mL